Compound potency records, mixed from different reports. Data source: NIAID ChemDB in PubChem.

Common to all: growth or infection tests

Percent inhibition refers to the dose given; in toxicity tests it is the harm to the cells. Rows are shuffled and stem from different studies. ECn: concentration that inhibits the pathogen or its effect by n%.

Nc1nc2c(ncn2COC(CO)CO)c(=O)[nH]1 ; organism: Human herpesvirus 7 ; cell line: CD4+ T lymphocytes ; method: syncytia ; measure: EC50 ; result: 10.7 µg/mL
Nc1nc2c(ncn2CCC(CO)CO)c(=O)[nH]1 ; organism: Human herpesvirus 6 ; strain or isolate: 729 ; cell line: HUMAN CORD BLOOD CELL ; method: antigen ; conditions: 6 d ; measure: inhibition ; dose: 5 µM ; result: 0%
O=c1[nH]c(=O)n([C@@H]2O[C@H](CO)[C@@H](O)[C@@H]2O)cc1/C=C/Br ; organism: Human herpesvirus 7 ; cell line: SupT1 ; method: syncytia ; measure: EC50 ; result: >250 µg/mL
Nc1nc2c(ncn2CCC(CO)CO)c(=O)[nH]1 ; organism: Human herpesvirus 6 ; cell line: Human T-lymphoblasts ; measure: EC50 ; result: 72 µM
Nc1nc2c(ncn2CC[C@@H](O)CO)c(=O)[nH]1 ; organism: Human herpesvirus 6 ; strain or isolate: GS ; cell line: HSB-2 ; method: antigen / flow cytometry ; measure: EC50 ; result: >200 µM
Nc1ccn([C@@H]2C[C@H](CO)[C@@H](O)[C@H]2O)c(=O)n1 ; organism: Human coronavirus ; strain or isolate: 229E 229E ; cell line: WI-38 ; method: cytopathic effect ; measure: EC50 ; result: 7 µg/mL
N#Cc1cn([C@H]2C=C[C@@H](CO)O2)c2ncnc(N)c12 ; organism: Human cytomegalovirus ; cell line: HFF ; method: virus yield ; measure: EC90 ; result: >100 µM
CC(C)Nc1nc2cc(Cl)c(Cl)cc2n1[C@H]1O[C@@H](CO)[C@H](O)[C@@H]1O ; organism: Human cytomegalovirus ; strain or isolate: P ; cell line: MRC-5 ; method: plaque count ; measure: inhibition ; dose: 1.03 µM ; result: 90%
Nc1nc2c(ncn2COCCO)c(=O)[nH]1 ; organism: Human herpesvirus 7 ; cell line: CD4+ T lymphocytes ; method: syncytia ; measure: EC50 ; result: >250 µg/mL
NC(=S)c1cn([C@@H]2O[C@H](CO)C[C@H]2O)c2ncnc(N)c12 ; organism: Human cytomegalovirus ; cell line: HFF ; method: virus yield ; measure: EC90 ; result: 3 µM
Nc1nc2c(ncn2[C@@H]2C[C@H](CO)[C@H]2CO)c(=O)[nH]1 ; organism: Human herpesvirus 7 ; cell line: CD4+ T lymphocytes ; method: syncytia ; measure: EC50 ; result: 4.5 µg/mL
Nc1nc2c(ncn2CCC(CO)CO)c(=O)[nH]1 ; organism: Human herpesvirus 6 ; strain or isolate: GS ; cell line: HSB-2 ; method: cytopathic effect ; measure: EC50 ; result: >400 µM
C[C@H](Cn1cnc2c(N)ncnc21)OCP(=O)(O)O ; organism: Human herpesvirus 7 ; cell line: CD4+ T lymphocytes ; method: syncytia ; measure: EC50 ; result: 84 µg/mL
Nc1ccn(C[C@@H](CO)OCP(=O)(O)O)c(=O)n1 ; organism: Human herpesvirus 6 ; cell line: Human cord blood lymphocytes ; measure: EC50 ; result: 0.25 µM
Nc1ncnc2c1ncn2C[C@@H](CO)OCP(=O)(O)O ; organism: Human herpesvirus 6 ; strain or isolate: GS ; cell line: HSB-2 ; method: antigen / flow cytometry ; measure: EC50 ; result: 8 µM
C=C1CCC2CC(C(=C)C)C2(C)CCC(C(=C)C(=O)O)CC1CC=C(C)C ; organism: Human rhinovirus ; strain or isolate: HRV3 ; cell line: HeLa ; measure: EC50 ; result: 0.19 µg/mL

For reference, 2 entries again:

Nc1nc2c(ncn2CC[C@@H](O)CO)c(=O)[nH]1 ; organism: Human herpesvirus 6 ; strain or isolate: GS ; cell line: HSB-2 ; method: antigen / flow cytometry ; measure: EC50 ; result: >200 µM
CC(C)Nc1nc2cc(Cl)c(Cl)cc2n1[C@H]1O[C@@H](CO)[C@H](O)[C@@H]1O ; organism: Human cytomegalovirus ; strain or isolate: P ; cell line: MRC-5 ; method: plaque count ; measure: inhibition ; dose: 1.03 µM ; result: 90%